Construct, isoform or probe ends are uncertain for at least one entry. For part of these data: No signal at the amounts used counts as a negative. For part of these data: Tags and fusion partners may be left off the protein sequences shown.
Assays:
[1] = target: mono-nitrosylated holo NsrR (Streptomyces coelicolor) (UniProt Q9L132); experiment: native MS; conditions: NO from DEA NONOate, mono-nitrosylated complex not observed; native MS: 100 mM ammonium acetate pH 8 (30 C for nitrosylation); recombinant protein
[2] = target: T1, holo NsrR ([4Fe-4S] in each subunit) (Streptomyces coelicolor) (UniProt Q9L132); experiment: native MS; conditions: second DNA molecule, non-specific complex, 100 mM ammonium acetate pH 8; native MS: 100 mM ammonium acetate pH 8 (30 C for nitrosylation); recombinant protein
T1 sequence (looked up, limits assumed): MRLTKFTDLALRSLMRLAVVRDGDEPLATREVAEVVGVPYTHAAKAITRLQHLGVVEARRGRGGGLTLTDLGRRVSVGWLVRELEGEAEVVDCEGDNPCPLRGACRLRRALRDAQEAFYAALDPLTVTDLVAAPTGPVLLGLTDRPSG

[3] = target: T1, holo NsrR ([4Fe-4S] in each subunit) (Streptomyces coelicolor); experiment: SPR; conditions: reference surface, negligible binding; SPR: 10 mM HEPES, 150 mM NaCl, 0.05% polysorbate 20, pH 7.4, 25 C, anaerobic; recombinant protein; label: 5' biotin; single-stranded DNA

“AACAAGCATCTGAGATCCCAGTT (double strand) [hmpA2 23 bp native MS]”: no binding [1].
“AACACGAATATCATCTACCAAT (double strand) [hmpA1 22 bp native MS]” showed a Kd [2] of 170 µM.
“GCAGGAGGACGTAGGGTAGG [ReDCaT probe (reference surface)]”: no binding [3].

From article PMC11500311, “Binding of a single nitric oxide molecule is sufficient to disrupt DNA binding of the nitrosative stress regulator NsrR†” (Chemical Science, 2024)
